From patent US8216800B2, “Substrates for detecting peptidase activity and methods using the substrates” (Biomerieux, priority 2007, dated 2012)

Assays:
Test in all cases: Peptidase activity detection on Columbia agar containing substrate
Format in all cases: cell-based
[1] = tested on: Listeria monocytogenes NCTC 11994; details: substrate 100 mg/l, 24 hours at 37° C., UV 360-365 nm
Experimental: (§1) 40 mg of each substrate are dissolved in 4 ml of dimethylformamide (DMF). This solution is completely taken up in 400 ml of Columbia agar autoclaved beforehand and kept molten at 50° C. The final concentration for each substrate is therefore 100 mg/l. Each of the media is distributed into 90 mm Petri dishes in a proportion of 20 ml per dish.
(§2) 18 microorganism strains derived from collections and belonging to various species of bacteria and of yeasts are inoculated onto these media by semi-quantitative isolation of 10 μl of a suspension at 0.5 McFarland diluted to 1/20. The media are incubated for 24 hours at 37° C., and then the colonies formed are examined visually under UV illumination at 360-365 nm.

[2] = tested on: Staphylococcus aureus NCTC 6571; details: substrate 100 mg/l, 24 hours at 37° C., UV 360-365 nm
Experimental: as §1, §2

[3] = tested on: Salmonella Typhimurium NCTC 74; details: substrate 100 mg/l, 24 hours at 37° C., UV 360-365 nm
Experimental: as §1, §2

[4] = tested on: Providencia rettgeri NCTC 7475; details: substrate 100 mg/l, 24 hours at 37° C., UV 360-365 nm
Experimental: as §1, §2

[5] = tested on: Enterobacter cloacae NCTC 11936; details: substrate 100 mg/l, 24 hours at 37° C., UV 360-365 nm
Experimental: as §1, §2

[6] = tested on: Staphylococcus aureus NCTC 11939; details: substrate 100 mg/l, 24 hours at 37° C., UV 360-365 nm
Experimental: as §1, §2

[7] = tested on: Enterococcus faecalis NCTC 775; details: substrate 100 mg/l, 24 hours at 37° C., UV 360-365 nm
Experimental: as §1, §2

[8] = tested on: Pseudomonas aeruginosa NCTC 10662; details: substrate 100 mg/l, 24 hours at 37° C., UV 360-365 nm
Experimental: as §1, §2

[9] = tested on: Enterococcus faecium NCTC 11047; details: Enterococcus faecium NCTC 11047 (Table 2); substrate 100 mg/l, 24 hours at 37° C., UV 360-365 nm
Experimental: as §1, §2

[10] = tested on: Yersinia enterocolitica NCTC 11176; details: substrate 100 mg/l, 24 hours at 37° C., UV 360-365 nm
Experimental: as §1, §2

[11] = tested on: Escherichia coli NCTC 10418; details: substrate 100 mg/l, 24 hours at 37° C., UV 360-365 nm
Experimental: as §1, §2

[12] = tested on: Burkholderia cepacia 1222; details: substrate 100 mg/l, 24 hours at 37° C., UV 360-365 nm
Experimental: as §1, §2

SMILES	color of the fluorescence [1]	color of the fluorescence [2]	color of the fluorescence [3]	color of the fluorescence [4]	color of the fluorescence [5]	color of the fluorescence [6]	color of the fluorescence [7]	color of the fluorescence [8]	color of the fluorescence [9]	color of the fluorescence [10]	color of the fluorescence [11]	color of the fluorescence [12]
C[C@H](N)C(=O)Nc1ccccc1-c1nc2ccccc2o1 [Substrate 1]	green	green	blue	blue	blue	green	blue	blue	blue	blue	blue	–
NCCC(=O)Nc1ccccc1-c1nc2ccccc2o1 [Substrate 2]	green	–	–	green	green	–	green	green	green	green	green	green
NCC(=O)Nc1ccccc1-c1nc2ccccc2o1 [Substrate 3]	green	green	–	blue	blue	green	–	blue	–	blue	blue	blue
C[C@H](N)C(=O)Nc1ccccc1-c1nc2cc(Cl)ccc2o1 [Substrate 4]	–	–	–	blue	blue	–	blue	violet	–	blue	–	–
COc1cc(NC(=O)CCN)c(-c2nc3ccccc3o2)cc1OC [Substrate 11]	blue	blue	blue	blue	blue	–	blue	blue	blue	blue	blue	blue
C[C@H](N)C(=O)Nc1ccccc1-c1nc2ccccc2n1CCc1ccccc1 [Substrate 14]	–	–	–	–	purple	–	–	–	–	–	–	–
C[C@H](N)C(=O)Nc1cc2c(cc1-c1nc3ccccc3n1CCc1ccccc1)OCO2 [Substrate 16]	–	–	blue	blue	blue	–	–	–	–	–	blue	blue
C[C@H](N)C(=O)Nc1ccccc1-c1nc2ccccc2s1 [Substrate 17]	–	–	–	blue	blue	–	–	yellow	–	yellow	blue	yellow
NCCC(=O)Nc1ccccc1-c1nc2ccccc2s1 [Substrate 18]	–	–	–	–	–	–	–	yellow	–	–	yellow	–
C[C@H](N)C(=O)Nc1ccc(Cl)cc1-c1nc2ccccc2s1 [Substrate 19]	–	–	blue	blue	blue	–	–	–	–	–	blue	–
